Test results: article PMC5773577 (Scientific Reports, 2018)
Strings that start with PEPTIDE1 are HELM notation: dots part the residues, brackets hold end groups and non-standard residues.

Assay: general procedure: Fmoc solid-phase peptide synthesis; Rink amide-MBHA resin (loading 0.59 mmol/g); DIPCDI, HOBt
Details: whole synthesis, RP-HPLC area under the peak

Row | Substance | final HPLC purity [%]
1 | PEPTIDE1{W.R.[8AOA].R.W.[am]}$$$$V2.0 | 91
2 | PEPTIDE1{W.R.[12ADO].R.W.[am]}$$$$V2.0 | 95
3 | PEPTIDE1{W.R.W.R.W.[am]}$$$$V2.0 | 97
4 | PEPTIDE1{W.R.[D1Nal].R.W.[am]}$$$$V2.0 | 99
5 | PEPTIDE1{R.[D1Nal].[8AOA].[D1Nal].R.[am]}$$$$V2.0 | 94
6 | PEPTIDE1{R.[D1Nal].[12ADO].[D1Nal].R.[am]}$$$$V2.0 | 96
7 | PEPTIDE1{R.W.[12ADO].W.R.[am]}$$$$V2.0 | 96
8 | PEPTIDE1{W.R.[F5-Phe].R.W.[am]}$$$$V2.0 | 98
9 | PEPTIDE1{W.R.[2trifluoromethylDPhe].R.W.[am]}$$$$V2.0 | 90
